{"source": "PubChem BioAssay AID624099 (ICCB-Longwood, 2012)", "test": "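Host factors E2 relies on to silence an HPV18 LCR reporter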 (primary screen)", "cells": "human C33A cervical carcinoma cells (HPV-negative) stably expressing BPV1 E2 and an HPV18 LCR luciferase reporter", "knock-down reagent": "siRNA pool against human genes, 40 nM", "duration": "72 h", "read-out": "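HPV18 LCR reporter light per well, converted to plate-wise z-scores that exclude control wells, and averaged over triplicate plates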", "reading the numbers": "mean z-score and z-score: higher = stronger reporter signal, weaker E2 silencing", "call rule": "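Hit if mean z-score reaches 2 and two or more of three replicate z-scores also reach 2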", "note": "In all, the deposit lists about 21,000 reagents; this is a part drawn at random. Of all reagents, 497 (2.4%) are marked active. 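Higher z means weaker E2 silencing; only reporter increases were scored, and knock-downs that hurt cell survival may mask genuine repressor factors.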 Entries without a mark were called inactive."}
{"gene":"LOC401155 (retired record)","mean z-score":0.29,"z-score, replicate A":0.38,"z-score, replicate B":0,"z-score, replicate C":0.49}
{"gene":"MCF2L","mean z-score":0.58,"z-score, replicate A":0.65,"z-score, replicate B":0.6,"z-score, replicate C":0.47}
{"gene":"XXYLT1","mean z-score":-0.9,"z-score, replicate A":-0.99,"z-score, replicate B":-0.85,"z-score, replicate C":-0.85}
{"gene":"PCNA","mean z-score":1.65,"z-score, replicate A":1.72,"z-score, replicate B":1.59,"z-score, replicate C":1.63}
{"gene":"NLRC4","mean z-score":-0.59,"z-score, replicate A":-1.12,"z-score, replicate B":-0.24,"z-score, replicate C":-0.39}
{"gene":"HNRNPUL1","mean z-score":-0.09,"z-score, replicate A":-0.02,"z-score, replicate B":-0.03,"z-score, replicate C":-0.24}
{"gene":"SYCP1","mean z-score":1.47,"z-score, replicate A":1.62,"z-score, replicate B":1.36,"z-score, replicate C":1.43}
{"gene":"PCDHA3","mean z-score":-1.14,"z-score, replicate A":-0.98,"z-score, replicate B":-1.35,"z-score, replicate C":-1.1}
{"gene":"CLCA4","mean z-score":1.14,"z-score, replicate A":0.93,"z-score, replicate B":1.34,"z-score, replicate C":1.16}
{"gene":"IQCF5","mean z-score":-0.76,"z-score, replicate A":-0.74,"z-score, replicate B":-0.8,"z-score, replicate C":-0.76}
{"gene":"TAF11L4","mean z-score":0.28,"z-score, replicate A":0.45,"z-score, replicate B":-0.14,"z-score, replicate C":0.54}
{"gene":"SIRT6","mean z-score":0.65,"z-score, replicate A":0.71,"z-score, replicate B":0.61,"z-score, replicate C":0.63}
{"gene":"PDE9A","mean z-score":0.74,"z-score, replicate A":0.75,"z-score, replicate B":0.74,"z-score, replicate C":0.74}
{"gene":"GSTO1","mean z-score":1.52,"z-score, replicate A":1.32,"z-score, replicate B":1.97,"z-score, replicate C":1.27}
{"gene":"PTPA","mean z-score":0.5,"z-score, replicate A":0.47,"z-score, replicate B":0.52,"z-score, replicate C":0.5}
{"gene":"PUF60","mean z-score":0.91,"z-score, replicate A":0.68,"z-score, replicate B":1.23,"z-score, replicate C":0.82}
{"gene":"VWC2","mean z-score":-0.1,"z-score, replicate A":0.06,"z-score, replicate B":0.03,"z-score, replicate C":-0.39}
{"gene":"FXYD5","mean z-score":-0.19,"z-score, replicate A":0.22,"z-score, replicate B":-0.01,"z-score, replicate C":-0.78}
{"gene":"KLHL34","mean z-score":-0.25,"z-score, replicate A":-0.13,"z-score, replicate B":-0.28,"z-score, replicate C":-0.34}
{"gene":"MAPK1","mean z-score":0.87,"z-score, replicate A":1.16,"z-score, replicate B":0.73,"z-score, replicate C":0.72}
{"gene":"ST7L","mean z-score":0.16,"z-score, replicate A":0.22,"z-score, replicate B":0.06,"z-score, replicate C":0.22}

Reformatted: 4 of the entries above.
| gene | mean z-score | z-score, replicate A | z-score, replicate B | z-score, replicate C |
| --- | --- | --- | --- | --- |
| PCDHA3 | -1.14 | -0.98 | -1.35 | -1.1 |
| CLCA4 | 1.14 | 0.93 | 1.34 | 1.16 |
| IQCF5 | -0.76 | -0.74 | -0.8 | -0.76 |
| TAF11L4 | 0.28 | 0.45 | -0.14 | 0.54 |
